In publication PMC9642902 (2022):

Biological target: T1, potato ATG8-2.2 (StATG8-2.2), protein for ITC (potato)
T1 chain: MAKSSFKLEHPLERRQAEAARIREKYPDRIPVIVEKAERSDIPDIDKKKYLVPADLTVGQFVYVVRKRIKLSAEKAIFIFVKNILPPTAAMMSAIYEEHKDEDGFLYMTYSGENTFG
Assay: ITC

B1: PiPexRD54 AIM peptide (peptide)
chain: KPLDFDWEIV
Kd: 38 nM
